Data reported in PubChem BioAssay AID720542 (National Center for Advancing Translational Sciences (NCATS), 2013).
The list shows a part of the results, in another mix than the full data. Calls of active or inactive are those of the source. Calls follow the shape of the dose curve; as a rule, active = well fitted inhibition curve with a large enough effect; inconclusive = small, poorly fitted or top-dose-only effect; inactive = no such curve, though single readings can be large or run the other way.

What follows are compounds tested on Plasmodium falciparum AMA1 (3D7) - RON2 peptide interaction (assay: qHTS for Inhibitors of AMA1-RON; Towards Development of Antimalarial Drug Lead: Primary Screen). Conditions: AlphaScreen AMA1-biotinylated RON2 peptide binding; series mostly up to 58.2 µM; activity change, negative = inhibition: at the top concentration.
Also: nearly all actives have a fitted effect of over 45% in size.
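For activity change, negative = inhibition in this document: 0% = vehicle wells and -100% = peptide control.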
Potency is read from the fitted curve at half-maximal effect.

Compound | activity change, negative = inhibition | Potency
O=[As](O)(c1ccccc1)c1ccc(O)cc1 | inactive: -7.47% | 
O=[N+]([O-])c1ncn(CCn2cnc([N+](=O)[O-])n2)n1 | inactive: 2.56% | 
CC(=O)NC(SC(=S)N(C)C)C(Cl)(Cl)Cl (stereo unspecified) | inactive: 24.6% | 
O=[N+]([O-])c1ccc(O)c(/C=N/Nc2ccc([N+](=O)[O-])cc2[N+](=O)[O-])c1 | inactive: -6.84% | 
O=C(OC1CN2CCC1CC2)c1cccc(Cl)c1 (stereo unspecified) | inactive: -6.14% | 
Nc1ccc([As](=O)(O)c2ccc([N+](=O)[O-])cc2)cc1 | inactive: -10.7% | 
C(Cc1nn[nH]n1)Cc1nn[nH]n1 | inactive: 0.118% | 
CN(C)C1(CNC(=O)c2ccc(Cl)c(S(N)(=O)=O)c2)CCCCC1 | inactive: 18.2% | 
Nc1ccc(CCCCOc2ccccc2)cc1 | inactive: -26.8% | 
COc1ccc(N)c([N+](=O)[O-])c1[N+](=O)[O-] | inactive: -9.21% | 
O=P(Nc1nc2ccccc2s1)(c1ccccc1)c1ccccc1 | inactive: 15.8% | 
C[C@H]1OP(=O)(Oc2ccccc2)[C@H](O)[C@H](O)[C@H]1N=[N+]=[N-] (stereo partly specified) | inactive: -12.8% | 
O=P(Nc1nccs1)(c1ccccc1)c1ccccc1 | inactive: 3.54% | 
CC(C)C(=O)NC(Sc1ccccc1)C(Cl)(Cl)Cl (stereo unspecified) | inactive: -17.6% | 
c1nnnn1CCn1cnnn1 | inactive: 27.6% | 
Cc1ccccc1CN(C)C(=O)COC(=O)C(O)(c1ccccc1)c1ccccc1 | inactive: 0.221% | 
C[C@@H]1C=CCP(=O)(Oc2ccccc2)O1 (stereo partly specified) | inactive: 8.03% | 
C[C@H]1OP(=O)(Oc2ccccc2)C[C@@H]2O[C@@H]21 (stereo partly specified) | inactive: -3.69% | 
N#C/C(=C\c1ccc(N(CCBr)CCBr)cc1)C(N)=O | inactive: -8.94% | 
CC(=O)c1ccc(N2CC2c2ccncc2)cc1 (stereo unspecified) | inactive: 0.089% | 
COC(=O)C1(C)COP(=O)(NCc2ccccc2)OC1 (stereo unspecified) | inactive: 20.2% | 
CC(=O)Nc1ccc([As](=O)(O)O)c(O)c1 | inactive: 0.529% | 
CC(=O)Nc1ccc(Oc2c([N+](=O)[O-])cc([N+](=O)[O-])cc2[N+](=O)[O-])cc1 | inactive: 2.13% | 
O=P1(Nc2nc3ccc(Cl)cc3s2)COc2ccccc2O1 (stereo unspecified) | inactive: -3.69% | 
CCOc1ccc(C2=NCC(CBr)S2)cc1 (stereo unspecified) | inactive: 4.28% | 

Compound | activity change, negative = inhibition | Potency
CC(C)(C)C(=O)NC(Sc1ccccc1)C(Cl)(Cl)Cl (stereo unspecified) | inactive: 6.18% | 
CCc1cc(O)c([N+](=O)[O-])c(C)c1[N+](=O)[O-] | inactive: 10.4% | 
O=C(OC1CN2CCC1CC2)c1ccccc1 (stereo unspecified) | inactive: -9.63% | 
CCC(=O)N1C2C3N(C(=O)CC)C1C1N(C(=O)CC)C(C(N1C(=O)CC)N3C(=O)CC)N2C(=O)CC | inactive: 0% | 
COC(=O)c1cc2c(s1)N=C(c1ccccc1)N(C)P2(=O)N1CCOCC1 (stereo unspecified) | inactive: 15.3% | 
Cc1ccc(OP(=O)(Nc2ccccn2)Oc2ccc(C)cc2)cc1 | inactive: 3.34% | 
CC(=O)NC(SC(=S)N(CC(C)C)CC(C)C)C(Cl)(Cl)Cl (stereo unspecified) | inactive: 25.1% | 
Cc1ccccc1OP(=O)(Nc1ccccn1)Oc1ccccc1C | inactive: -15% | 
CC(NC(=O)COC(=O)C(O)(c1ccccc1)c1ccccc1)c1ccccc1 (stereo unspecified) | inactive: 8.28% | 
CN(C)C(=O)Oc1noc2ccccc12 | inactive: 9.51% | 
O=c1c2cc([N+](=O)[O-])ccc2[nH]c2c([N+](=O)[O-])cc([N+](=O)[O-])cc12 | inactive: -9.17% | 
c1ccc(-c2nn[nH]n2)c(-c2nn[nH]n2)c1 | inactive: -8.6% | 
Cc1ccc(NP(=O)(Oc2cccc(C)c2)Oc2cccc(C)c2)nc1 | inactive: 2.37% | 
O=C(NC1CCS(=O)(=O)C1)NP(=S)(Oc1ccccc1)Oc1ccccc1 (stereo unspecified) | inactive: -4.31% | 
CCNC(=S)/N=C(\N)N[N+](=O)[O-] | inactive: 18.7% | 
O=P1(N(CCCl)CCCl)OCCC2CCCCN21 (stereo unspecified) | inactive: 17.9% | 
Nc1cccc2ccc([As](=O)(O)O)cc12 | inactive: -7.4% | 
CCN(N=Nc1nonc1N)c1nonc1N | inactive: 16% | 
CN(C)P(=O)(N(C)C)n1c(Nc2ccccc2)nnc1-c1ccccc1 | inactive: -10.3% | 
O=P(Nc1nc2ccc(Cl)cc2s1)(c1ccccc1)c1ccccc1 | inactive: 40.6% | 
O=C(O)c1ccccc1[As](=O)(O)O | inactive: 8.39% | 
CC(=O)Nc1ccc([As](=O)(O)O)cc1 | inactive: 15.2% | 
CCCC1OP(N)(=O)OCC1CC (stereo unspecified) | inactive: 2.28% | 
CCOP(=O)(Nc1ccccc1)OCC | inactive: 0% | 
Cc1cc(SC(NC(=O)c2ccc(F)cc2)C(Cl)(Cl)Cl)ncn1 (stereo unspecified) | inactive: 0% | 

Compound | activity change, negative = inhibition | Potency
CN(C(=O)Cc1ccc(Cl)c(Cl)c1)[C@H]1CCCC[C@@H]1N1CCCC1 | inactive: 0.245% | 
Cc1ccc(NP(=O)(Oc2ccccc2F)Oc2ccccc2F)nc1 | inactive: -7.7% | 
Oc1ccccc1CNc1ccccn1 | inactive: 1.83% | 
O=C(NC(Sc1ccncn1)C(Cl)(Cl)Cl)c1ccccc1 (stereo unspecified) | inactive: 37% | 
CC(C)CC(=O)NC(Sc1ccc(Cl)cc1)C(Cl)(Cl)Cl (stereo unspecified) | inactive: 6.24% | 
Nc1cc(N)c2nonc2c1[N+](=O)[O-] | inactive: -8.65% | 
O=[N+]([O-])C1C(O)C(O)C([N+](=O)[O-])C(O)C1O (stereo unspecified) | inactive: -19.1% | 
CN(C(=O)Cc1ccc(Cl)c(Cl)c1)[C@H]1CCCC[C@H]1N1CCCC1 | inactive: 5.53% | 
Cc1ccc(N/C(=N/P(=O)(N2CCOCC2)N2CCOCC2)N2CCOCC2)cc1 | inactive: 28.3% | 
NC(=O)c1cc([N+](=O)[O-])cc([N+](=O)[O-])c1N | inactive: -4.16% | 
Clc1ccc(Cl)c(NC2=NCC(CBr)S2)c1 (stereo unspecified) | inactive: 7.48% | 
CN1CCCC(OC(=O)C(c2ccccc2)c2ccccc2)C1 (stereo unspecified) | inactive: -17.3% | 
COc1ccccc1OP(=O)(Nc1ccc(C)cn1)Oc1ccccc1OC | inactive: -12.2% | 
Cc1ccc(OP(=O)(Nc2nccs2)Oc2ccc(C)cc2)cc1 | inactive: 0.538% | 
CCN(/C(=N/P(=O)(N1CCOCC1)N1CCOCC1)N1CCOCC1)c1ccc(OC)cc1 | inactive: 2% | 
Nc1ccc([As](=O)(O)c2ccc(N)cc2)cc1 | inactive: -5.17% | 
c1cc(-c2nn[nH]n2)ccc1-c1nn[nH]n1 | inactive: -11.3% | 
CC1CCN(C(=O)Oc2c(Cl)cc(Cl)c3cccnc23)CC1 | inactive: 3.13% | 
CC(C)=N/N=C(\N)N[N+](=O)[O-] | inactive: 9.51% | 
CC(C)c1nc(Nc2ccccc2)n(P(=O)(N(C)C)N(C)C)n1 | inactive: -0.225% | 
CN(C)C(=O)OCCc1n(C)cc[n+]1C | inactive: -0.144% | 
COc1ccc(C2=NCC(CBr)S2)cc1 (stereo unspecified) | inactive: -0.0301% | 
Cc1ccc(NP(=O)(Oc2ccccc2)Oc2ccccc2)nc1 | inactive: -7.39% | 
CCc1nc2c(n1)c1c(non1O)c1c2no[n+]1[O-] | inactive: -4.4% | 
CC(=O)N1C2C3N(C(C)=O)C1C1N(C(C)=O)C(C(N1C(C)=O)N3C(C)=O)N2C(C)=O | inactive: -1.32% | 

Compound | activity change, negative = inhibition | Potency
O=[N+]([O-])c1cccc2n[nH]nc12 | inactive: -16.2% | 
O=[N+]([O-])c1ncn(CCn2ncnc2[N+](=O)[O-])n1 | inactive: -1.05% | 
CC(C)(C)C(=O)NC(Sc1ccncn1)C(Cl)(Cl)Cl (stereo unspecified) | inactive: 37.3% | 
O=C(O)CNc1ccc([As](=O)(O)O)cc1 | inactive: -4.46% | 
O=[N+]([O-])c1cccc(NC2=NCC(CBr)S2)c1 (stereo unspecified) | inactive: -2.92% | 
COC(=O)C1(C)COP(=O)(Nc2ccccc2)OC1 (stereo unspecified) | inactive: 21.8% | 
O=P1(N(CCCl)CCCl)OCCCS1 (stereo unspecified) | inactive: 8.74% | 
O=C(Nc1cc([As](=O)(O)O)ccc1O)c1ccccc1 | inactive: 39% | 
CCOC(=O)Nc1cccc([As](=O)(O)O)c1 | inactive: 6.28% | 
Cc1cc(SC(NC=O)C(Cl)(Cl)Cl)ncn1 (stereo unspecified) | inactive: 9.2% | 
O=P(Nc1ccccn1)(c1cccc2ccccc12)c1cccc2ccccc12 | inactive: -20% | 
O=[N+]([O-])c1ccc(Nc2ccc(Oc3ccc([N+](=O)[O-])cc3[N+](=O)[O-])cc2)c([N+](=O)[O-])c1 | inactive: -8.29% | 
O=C(O)C(O)c1ccc(N(CCCl)CCCl)cc1 (stereo unspecified) | inactive: -10% | 
CCOC(=O)Nc1ccc([As](=O)(O)O)c(O)c1 | inactive: 9.66% | 
CC1CCNP(=O)(N(CCCl)CCCl)O1 (stereo unspecified) | inactive: 77.7% | 
COP(=O)(OC)N1CC1c1ccccc1 (stereo unspecified) | inactive: -6.73% | 
CCCCOc1ccc(C(=O)NCC2(N3CCCCC3)CCCCC2)cc1OC | inactive: -0.763% | 
Cc1cc(SC(NC(=O)c2ccccc2)C(Cl)(Cl)Cl)nc(C(C)C)n1 (stereo unspecified) | inactive: -0.772% | 
O=C(OC1CN2CCC1CC2)c1cccc([N+](=O)[O-])c1 (stereo unspecified) | inactive: 3.63% | 
CSc1ccc(Nc2c([N+](=O)[O-])cc([N+](=O)[O-])cc2[N+](=O)[O-])cc1 |  | active: 11.2 µM
CCOC(=O)c1ccc(NC(=O)C(C)(CCl)SC)cc1 (stereo unspecified) | inactive: -19.2% | 
CCC(C)N(CC(C)C)C(=S)SC(NC(C)=O)C(Cl)(Cl)Cl (stereo unspecified) | inactive: 18.9% | 
COP1(=S)c2c(C)nn(CCC#N)c2N=C(c2ccc(F)cc2)N1C (stereo unspecified) | inactive: -0.689% | 
COC(=O)C1(C)COP(=O)(N2CCCC2)OC1 (stereo unspecified) | inactive: 15.2% | 
O=C(O)C(=O)c1ccc(N(CCCl)CCCl)cc1 | inactive: -4.11% | 

Compound | activity change, negative = inhibition | Potency
O=C(COc1ccccc1)OC1CN2CCC1CC2 (stereo unspecified) | inactive: 17.8% | 
O=C(Nc1ccncc1[N+](=O)[O-])c1ccc([N+](=O)[O-])cc1[N+](=O)[O-] | inactive: -3.85% | 
O=[N+]([O-])c1cc(Oc2ccc([N+](=O)[O-])cc2C(F)(F)F)cc([N+](=O)[O-])c1 | inactive: -0.476% | 
COc1ccc(N/C(=N/P(=O)(N2CCOCC2)N2CCOCC2)N2CCOCC2)cc1 | inactive: 1.67% | 
Cc1c2c(nc3ccccc13)SC(C(Cl)Cl)C2 (stereo unspecified) | inactive: 13.2% | 
Cc1cc(=O)[nH]c(N[N+](=O)[O-])n1 | inactive: -6.61% | 
O=P1(N(CCCl)CCCl)OCCCN1CCCl (stereo unspecified) | inactive: 5.07% | 
O=P1(N(CCCl)CCCl)Nc2ccccc2N1 | inactive: 10.7% | 
COc1ccc2nc(NP(=O)(c3ccccc3)c3ccccc3)sc2c1 | inactive: -2.84% | 
COc1cc(I)ccc1[As](=O)(O)O | inactive: -14.6% | 
ClCCSc1nnc(-c2cccnc2)o1 | inactive: 13.9% | 
CC(C)c1ccc(OP(=O)(Nc2ccccn2)Oc2ccccc2F)cc1 (stereo unspecified) | inactive: -4.17% | 
COC(=O)C1(C)COP(=O)(N2CCCCCC2)OC1 (stereo unspecified) | inactive: 8.25% | 
O=C(OC1CN2CCC1CC2)c1cccc2[nH]cnc12 (stereo unspecified) | inactive: 3.3% | 
CCN(CC)C(=S)SC(NC=O)C(Cl)(Cl)Cl (stereo unspecified) | inactive: 9.36% | 
CC(C)NC(=O)NP(=O)(Oc1ccccc1)Oc1ccccc1 | inactive: 0.299% | 
O=[N+]([O-])c1cc([N+](=O)[O-])c(-c2ccn[nH]2)s1 | inactive: 8.94% | 
O=[As](O)(c1ccc(O)cc1)c1ccccc1O | inactive: 4.33% | 
C[As](=O)(O)c1cccc(C(=O)O)c1 | inactive: -0.966% | 
COc1cc(C(=O)NCC2(N3CCOCC3)CCCCC2)ccc1OCC(C)C | inactive: 10.5% | 
O=[N+]([O-])c1ccc(-c2cc([N+](=O)[O-])c(O)c([N+](=O)[O-])c2)cc1 | inactive: -22.6% | 
